Measured values from several laboratories, pooled; numbers as filed in NIAID ChemDB.

Shared fields: whole-cell or culture tests; species: Herpes simplex virus 1; cell line: VERO; measure: EC50

ECn: concentration that inhibits the pathogen or its effect by n%. Blank or dashed fields: not listed here. Neighbouring rows are from separate reports. Two numbers with a dash give a range or band.

smiles	strain or isolate	method	value
Cc1cn(N2C[C@H](CO)[C@H]2CO)c(=O)[nH]c1=O		cytopathic effect	>100 µg/mL
O=c1cc(-c2ccc(-c3ccccc3)cc2)oc2ccccc12	KOS	plaque count	510 µg/mL
Nc1ncnc2c1ncn2[C@H]1C[C@H](O)[C@@H](COP(=O)(O)CC(=O)O)O1	HFEM	plaque count	>2000 µM
CC(C1=NNC(=Nc2ccccc2)SC1)N1C(=O)c2ccccc2C1=O	VR733	cytopathic effect	77.04 µg/mL
Nc1nc2c(ncn2[C@@H]2O[C@H](COP(=O)(O)CC(=O)O)[C@@H](O)[C@H]2O)c(=O)[nH]1	HFEM	plaque count	>2000 µM
Nc1nc2c(ncn2COC(CO)COP(=O)(O)OP(=O)(O)O)c(=O)[nH]1		cytopathic effect	0.08 µg/mL
Nc1nc2c(ncn2COCCO)c(=O)[nH]1	TK-	plaque count	>30 µg/mL
CC[C@@H](C(C)C)[C@H](O)[C@@H](O)[C@@H](C)[C@H]1CC[C@H]2[C@@H]3CC(=O)[C@H]4C[C@H](O)[C@H](O)C[C@]4(C)[C@H]3CC[C@]12C	F	plaque count	22.8 µM
N#Cc1c(C2CCCCC2)nc(SCc2cccc([N+](=O)[O-])c2)[nH]c1=O	McIntyre	plaque count	>20 µM
CC[C@@H](C(C)C)[C@@H](O)[C@H](O)[C@@H](C)[C@H]1CC[C@H]2[C@@H]3CC(=O)[C@@]4(O)C[C@@H](OC(C)=O)CC[C@]4(C)[C@H]3CC[C@]12C	F	plaque count	57.6 µM
O=C1c2ccccc2C(=O)N1CC1=NNC(=Nc2ccccc2)SC1	VR733	cytopathic effect	>111 µg/mL
Nc1ncnc2c1ncn2C1SC[C@H](CO)[C@H]1CO		cytopathic effect	>100 µg/mL
O=C(O)Cc1ccc(-c2ccccn2)cc1	F		0.1 µM
CC[C@@H](C(C)C)[C@H](O)[C@@H](O)[C@@H](C)[C@H]1CC[C@H]2[C@@H]3CC(=O)[C@@]4(O)C[C@@H](OC(C)=O)CC[C@]4(C)[C@H]3CC[C@]12C	F	plaque count	107.3 µM
N#Cc1c(-c2cccs2)nc(SCc2ccccc2)[nH]c1=O	McIntyre	plaque count	>20 µM
CC[C@@H](C(C)C)[C@@H](O)[C@H](O)[C@@H](C)[C@H]1CC[C@H]2[C@@H]3CC(=O)[C@H]4C[C@@H](OC(C)=O)CC[C@]4(C)[C@H]3CC[C@]12C	B2006 (TK-)	plaque count	14.9 µM
Cn1c2c(c(=O)n(C)c1=O)S[C@H]1[C@@H](O2)O[C@H](CO)[C@@H](O)[C@@H]1O			>100 µM
CCCOc1nc(N)nc2c1ncn2[C@@H]1C[C@H](CO)C2CC21		cytopathic effect	1–10 µg/mL
Cc1ccc(N=C2NN=C(C(C)N3C(=O)c4ccccc4C3=O)CS2)cc1	VR733	cytopathic effect	>111 µg/mL
COC1=C2C[C@@H](C)C[C@@H](OC)[C@@H](O)[C@H](C)/C=C(\C)[C@@H](OC(N)=O)[C@H](OC)/C=C\C=C(/C)C(=O)NC(=CC1=O)C2=O	SM44		0.093 µM
COC1c2ccccc2C(=O)N1C(C)C1=NNC(=Nc2ccccc2)SC1	VR733	cytopathic effect	37.03 µg/mL
O=c1[nH]c(=O)n([C@@H]2O[C@H](O)[C@@H](O)[C@@H]2O)cc1C#Cc1ccc2c3cccc4cccc(c5cccc1c52)c43	KOS		0.131 µM
O=c1[nH]c(=O)n([C@@H]2C[C@H](O)[C@@H](CO)O2)cc1C(F)=C(Cl)Cl		plaque count	>100 µg/mL
CC[C@@H](C(C)C)[C@@H](O)[C@H](O)[C@@H](C)[C@H]1CC[C@H]2[C@@H]3CC(=O)[C@@]4(O)C[C@H](O)[C@H](O)C[C@]4(C)[C@H]3CC[C@]12C	F	plaque count	>40.4 µM
Nc1nc2c(ncn2CCC(CO)CO)c(=O)[nH]1	KD1	plaque count	122.7 µM
Nc1nc(N)c2ncn([C@@H]3C[C@H](CO)C4CC43)c2n1		cytopathic effect	1–10 µg/mL
Nc1ccn(C2OC[C@H](CO)[C@H]2CO)c(=O)n1		cytopathic effect	>100 µg/mL
Nc1ncnc2c1ncn2[C@@H]1O[C@H](CO)[C@@H](O)[C@@H]1O		cytopathic effect	10 µg/mL
O=C1c2ccccc2C(=O)N1C(Cc1ccccc1)C1=NNC(=Nc2ccccc2)SC1	VR733	cytopathic effect	12.34 µg/mL
CC(=O)OC[C@H]1O[C@@H]2Oc3c(c(=O)n(C)c(=O)n3C)S[C@@H]2[C@@H](OC(C)=O)[C@H]1OC(C)=O			61 µM
Cc1cn([C@@H]2O[C@H](CO)[C@@H](O)[C@@H]2O)c(=O)[nH]c1=O	VR-3	plaque count	43 µM
CC(=O)O[C@@H]1[C@@H](OC(C)=O)[C@H](C)O[C@@H]2Oc3c(c(=O)n(C)c(=O)n3C)S[C@@H]21			>100 µM
O=c1[nH]c(=O)n([C@H]2C[C@H](O)[C@@H](CO)O2)cc1C(F)=C(F)C(F)(F)F		plaque count	>100 µg/mL
Nc1nc2c(ncn2COCCOP(=O)(O)OP(=O)(O)OP(=O)(O)O)c(=O)[nH]1		cytopathic effect	1.09 µg/mL
CC1(C)C=C2[C@H]3CC[C@@H]4[C@@]5(C)CCC(=O)C(C)(C)[C@@H]5CC[C@@]4(C)[C@]3(C)CC[C@@]2(C(=O)O)CC1	7401H	plaque count	3.9 µg/mL
CC[C@@H](C(C)C)[C@@H](O)[C@H](O)[C@@H](C)[C@H]1CC[C@H]2[C@@H]3CC(=O)[C@H]4C[C@H](O)[C@H](O)C[C@]4(C)[C@H]3CC[C@]12C	B2006 (TK-)	plaque count	64.9 µM
CC(=O)NC1[C@H](COC[C@@H]2C(CO)O[C@@H](COC[C@@H]3C(CO)O[C@@H](O)C(NC(C)=O)[C@@H]3O)C(NC(C)=O)[C@@H]2O)OC(CO)[C@@H](O)[C@H]1O	KOS	cytopathic effect	>200 µg/mL
CC(O)CCCCCC(CCCCCCCCCCCCCC1CC(=O)OC[C@H]2O[C@@H](OC(CCCCCCCCCCCC(CCCCCC(C)O)O[C@@H]3O[C@H](CO)[C@@H](O)[C@H](O)[C@H]3O)CC(=O)OC[C@@H]3O[C@H](O1)[C@@H](O)[C@H](O)[C@H]3O)[C@H](O)[C@@H](O)[C@@H]2O)O[C@@H]1O[C@H](CO)[C@@H](O)[C@H](O)[C@H]1O	KOS	cytopathic effect	2.7 µg/mL
O=c1[nH]c(=O)n([C@H]2C[C@H](O)[C@@H](CO)O2)cc1/C(F)=C(/F)Cl		plaque count	>100 µg/mL
Nc1nc2c(ncn2COC(CO)COP(=O)(O)O)c(=O)[nH]1		cytopathic effect	0.08 µg/mL

The first 3 rows once more:

Cc1cn(N2C[C@H](CO)[C@H]2CO)c(=O)[nH]c1=O ; method: cytopathic effect ; value: >100 µg/mL
O=c1cc(-c2ccc(-c3ccccc3)cc2)oc2ccccc12 ; strain or isolate: KOS ; method: plaque count ; value: 510 µg/mL
Nc1ncnc2c1ncn2[C@H]1C[C@H](O)[C@@H](COP(=O)(O)CC(=O)O)O1 ; strain or isolate: HFEM ; method: plaque count ; value: >2000 µM